The results in this text go back to PMC13635753, “Mechanism of NanR transcriptional activation of sialic acid metabolism in Streptococcus pneumoniae” (Nucleic Acids Research, 2025).

For this data set, the target named is T1, SpNanR (Streptococcus pneumoniae) (UniProt A0A0H2ZPE9).
T1 sequence (looked up): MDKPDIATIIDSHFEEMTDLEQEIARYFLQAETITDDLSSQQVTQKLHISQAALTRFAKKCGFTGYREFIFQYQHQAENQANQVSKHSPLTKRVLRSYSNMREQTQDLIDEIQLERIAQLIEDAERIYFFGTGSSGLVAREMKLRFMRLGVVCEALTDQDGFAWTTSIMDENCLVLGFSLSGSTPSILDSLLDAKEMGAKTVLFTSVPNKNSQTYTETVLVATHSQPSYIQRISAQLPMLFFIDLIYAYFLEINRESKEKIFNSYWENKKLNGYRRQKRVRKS
Nature of the data set: fluorescence-detection AUC (sedimentation velocity). Conditions: 2 mM ManNAc-6-P, Hill n 2.0; AUC: 50 nM FAM-DNA, 0.019-5 uM SpNanR; recombinant protein; residues 1-283; label: 5'-FAM on sense strand.

The term Kd denotes the equilibrium constant for the complex coming apart.

For at least one entry, the source does not settle the construct or the ends of the probe. Tags and fusion partners may be left off the protein sequences shown.

In the case of “TCTGAAAGTACTTTTAGA (double strand) [nanE recognition sequence (site 2), FAM]”, the Kd amounted to 549 nM.
